Results of unrelated studies side by side (data: NIAID ChemDB).

Common to all: tests in culture; species: Candida albicans; read-out: MIC

a–b is a range or a potency band. Conditions beyond the fields shown may differ between rows. An empty or dashed field is not shown.

compound	strain or isolate	method	setting	result
Oc1ccc2cc1Oc1ccc(cc1)CCc1ccc(c(O)c1)-c1c(O)cccc1CC2	CA 02	broth dilution		>512 µg/mL
CCN1C(=O)CS/C1=N\NC(=O)Cc1csc2nc(-c3ccc(Br)cc3)cn12	ATCC 10231			>32 µg/mL
CCOC(=O)c1ccc2c(c1)nc(-c1ccc(C(=O)NN(CC)CC)cc1)n2Cc1ccc(Cl)cc1Cl	ATCC 10231			25 µg/mL
O=C(Cn1c(=O)oc2cc(C(=O)c3cc(F)ccc3F)ccc21)c1ccc(Br)cc1	ATCC 90028			128 µg/mL
S=c1[nH]nc(-c2cnccn2)n1-c1ccc(Cl)cc1Cl	CNCM 1180-79			>300 µg/mL
CCNC(=S)NNC(=O)Cc1csc2nc(-c3ccc(Br)cc3)cn12	ATCC 10231			>32 µg/mL
CCc1ccc(SC2=C(Sc3ccc(CC)cc3)C(=O)c3ncccc3C2=O)cc1	ATCC 10231			6.3 µg/mL
OC(Cn1cncn1)(c1ccc(C(F)(F)F)cc1)C(F)(F)c1cccs1	ATCC 90028			≤0.125 µg/mL
Cc1ccc(SC2=C(Sc3ccc(C)cc3)C(=O)c3c(C)cc(Cl)nc3C2=O)cc1	ATCC 10231			6.3 µg/mL
O=C(Cn1c(=O)oc2cc(C(=O)c3c(F)cccc3F)ccc21)c1ccc(Br)cc1	ATCC 90028			128 µg/mL
CCCOC(=O)CC(c1nccn1C)c1nccn1C	ATCC 10231	broth dilution	48 h	>512 µg/mL
C=C(CC[C@@H](C)C1CCC2C3=C(CC[C@@]21C)[C@@]1(C)CC[C@H](O)CC1C(=O)O3)C(C)C		agar		1.9 µM
Cn1cnc(-c2ccccc2)c1	ATCC 10231	broth dilution	24 h	>512 µg/mL
CC(C)C(=O)CCC[C@H]1CO[C@@](Cn2ccnc2)(c2ccc(F)cc2F)C1	IFO. 1385			<0.1 µg/mL
S=c1[nH]nc(C2CCCCC2)n1-c1ccc(Cl)cc1Cl	CNCM 1180-79			>300 µg/mL
O=C(Cc1csc2nc(-c3ccc(Br)cc3)cn12)N/N=C1\SCC(=O)N1c1ccc(Br)cc1	ATCC 10231			>32 µg/mL
CCOC(=O)c1ccc2c(c1)nc(-c1ccc(C(N)=NCc3ccc(Cl)cc3)cc1)n2Cc1ccc(Cl)cc1Cl	ATCC 10231			12.5 µg/mL
CC(C)C(=O)CCC[C@@H]1CO[C@@](Cn2cncn2)(c2ccc(F)cc2F)C1	IFO. 1385			<0.1 µg/mL
O=C(O)c1cc([N+](=O)[O-])c(N=Nc2c(O)ccc3ccccc23)c([N+](=O)[O-])c1	UBA 7			13.02 µg/mL
O=C(N/N=C/c1ccc(Cl)cc1Cl)c1cc(Cl)ccc1SSc1ccc(Cl)cc1C(=O)N/N=C/c1ccc(Cl)cc1Cl				250 µg/mL
C[C@H]1[C@H](O)[C@@H](C)/C=C/C=C/C=C/C=C/C=C/C=C/C=C/[C@H](O[C@@H]2O[C@H](C)[C@@H](O)[C@H](N)[C@@H]2O)C[C@@H]2O[C@](O)(C[C@@H](O)C[C@@H](O)CC[C@H](O)[C@@H](O)C[C@@H](O)CC(=O)O[C@H]1C)C[C@H](O)[C@H]2C(=O)O	MY1055			0.5 µg/mL
COC1OC(C)(c2ccc(-c3ccccc3)cc2)C(O)CC1N(C)C				>32 µg/mL
O=C1C(Sc2ccc(Cl)c(Cl)c2)=C(Sc2ccc(Cl)c(Cl)c2)C(=O)c2ncccc21	ATCC 10231			6.3 µg/mL
CCN(NC(=O)Cc1nc2cc(C(=O)OC)ccc2n1Cc1ccc(Cl)cc1)C(C)C	ATCC 10231			>50 µg/mL
O=C(N/N=C/c1ccc(Cl)cc1Cl)c1ccccc1SSc1ccccc1C(=O)N/N=C/c1ccc(Cl)cc1Cl				50–125 µg/mL
CCCN=C(NCCC)c1ccc(-c2nc3cc(C(=O)OCC)ccc3n2CCC)cc1	ATCC 10231			50 µg/mL
O=C1C(Sc2ccc(F)cc2)=C(Sc2ccc(F)cc2)C(=O)c2ncccc21	ATCC 10231			50 µg/mL
C[n+]1c[nH]cc1-c1ccccc1	ATCC 10231	broth dilution	24 h	500 µg/mL
C=C(CC[C@@H](C)C1CCC2C3=C(CC[C@@]21C)[C@@]1(C)CC[C@H](O)CC1CC3=O)C(C)C		agar		>100 µM
CC(C)C(=O)CCC[C@H]1CO[C@@](Cn2cncn2)(c2ccc(F)cc2F)C1	IFO. 1385			<0.1 µg/mL
NNC(=O)c1cc(Br)ccc1SSc1ccc(Br)cc1C(=O)NN				>250 µg/mL
C[C@@H]1[C@H](O)[C@@H](C)/C=C/C=C/C=C/C=C/C=C/C=C/C=C/[C@H](O[C@@H]2O[C@H](C)[C@@H](O)[C@H](N)[C@@H]2O)C[C@@H]2O[C@](O)(C[C@@H](O)C[C@@H](O)[C@H](O)CC[C@@H](O)C[C@@H](O)CC(=O)O[C@H]1C)C[C@H](O)[C@H]2C(=O)O	ATCC 10231	broth dilution		0.048 µg/mL
COC1OC(C)(c2ccc(-c3ccccc3)cc2)C(=O)CC1N(C)C				>32 µg/mL
O=C(Cn1c(=O)oc2cc(C(=O)c3c(F)cccc3F)ccc21)c1ccc(Cl)cc1	ATCC 90028			64 µg/mL
Oc1cc2ccc1Oc1cccc(c1)CCc1ccc(O)c(c1)Oc1ccc(cc1)CC2	CA10	broth dilution		>512 µg/mL
Nn1c(C2CCCCC2)n[nH]c1=S	CNCM 1180-79			240 µg/mL
Clc1cccc(CSc2ccccc2Cn2ccnc2)c1				50 µg/mL
CC(=O)CCc1ccc2c(N=Nc3c([N+](=O)[O-])cc(C(=O)O)cc3[N+](=O)[O-])c(O)ccc2c1	UBA 7			15.63 µg/mL
Cc1ccc(C(=O)Cn2c(=O)oc3cc(C(=O)c4ccccc4F)c(Cl)cc32)cc1	ATCC 90028			128 µg/mL
O=C(Cc1csc2nc(-c3ccc(Br)cc3)cn12)NNC(=S)Nc1ccc([N+](=O)[O-])cc1	ATCC 10231			32 µg/mL
COc1ccc(SC2=C(Sc3ccc(OC)cc3)C(=O)c3ncccc3C2=O)cc1	ATCC 10231			6.3 µg/mL
COc1ccc2cc1Oc1ccc(cc1)CCc1cc(O)ccc1-c1ccc(cc1O)CC2	CA10	broth dilution		>512 µg/mL
CC(C)C(=N)CCC=C1CO[C@@](Cn2cncn2)(c2ccc(F)cc2F)C1	IFO. 1385			6.25 µg/mL
OC(Cn1cncn1)(c1ccc(F)cc1F)C(F)(F)c1nc(Br)cs1	ATCC 90028			≤0.125 µg/mL
Cn1ccnc1C(=O)c1nccn1C	ATCC 10231	broth dilution	48 h	>512 µg/mL
CCc1nn(CC(=O)NN)c(=O)n1NCc1ccccc1				250 µg/mL
O=C(Cn1c(=O)oc2cc(C(=O)c3cc(F)ccc3F)ccc21)c1ccccc1	ATCC 90028			128 µg/mL
CCCOc1ccccc1/C=N/NC(=O)c1ccccc1SSc1ccccc1C(=O)N/N=C/c1ccccc1OCCC				250 µg/mL
Cc1c(O)cccc1C(=O)N[C@@H](CSc1ccccc1)[C@H](O)CN1C[C@H]2CCCC[C@H]2C[C@H]1C(=O)NC(C)(C)C	I182B			64 µg/mL
OC(Cn1cncn1)(c1ccc(F)cc1F)C(F)(F)c1ncccn1	ATCC 90028			0.5 µg/mL
Clc1ccc(CSc2ccccc2Cn2ccnc2)cc1Cl				12.5 µg/mL
OC(Cn1cncn1)(c1ccc(C(F)(F)F)cc1)C(F)(F)c1nc2ccccc2s1	ATCC 90028			≤0.016 µg/mL
Cc1cccc(SC2=C(Sc3cccc(C)c3)C(=O)c3ncccc3C2=O)c1	ATCC 10231			12.5 µg/mL